Assay results published in patent publication US20230399384A1 (University of Texas, published 2023).

Experiments:
[1] = target: SARS-CoV-2 RBD protein (Sino Biological, Cat: 40592-V08B) (SARS-CoV-2)
[2] = target: SARS-CoV-2 S protein on live SARS-CoV-2-mNG reporter virus (SARS-CoV-2); assay: cell-based or functional assay
[3] = target: sCoV-RBD (Fc-tagged RBD of SARS-CoV S protein) (SARS-CoV; human); assay: phage ELISA, scFv on phage
[4] = target: T1, sCoV2-RBD (Fc-tagged RBD of SARS-CoV-2 S protein) (SARS-CoV-2; human); assay: ELISA titration on coated sCoV2-RBD
S protein of SARS-CoV = S protein of SARS-CoV (SARS-CoV); assay: ELISA, purified IgG1 on coated S protein
[5] = target: T1, sCoV2-RBD (Fc-tagged RBD of SARS-CoV-2 …); assay: BLI (Octet) blocking of ACE2 binding to captured sCoV2-RBD

B1: CoV2-25 (antibody, V domains shown)
VH: QVQLVESGAEVKKPGASVKVSCKASGYTFTGYYMHWVRQAPGQGLEWMGRINPNSGGTNYAQKFQGRVTMTRDTSISTAYMELSRLRSDDTAVYYCARGYFDYWGQGTLVTVSS
VL: QAVVTQPPSTSGTPGQRVTIS[sequence of about 80 residues omitted]FGGGTKVTVL
With B1 the Kd [1] was 3.78 nM, the “NC50 (neutralisation of reporter SARS-CoV-2, Vero E6 cells)” value [2] was 1.24 µg/mL and the binding result [3] was “no binding”. The EC50 [4] was 0.84 nM, the binding result (S protein of SARS-CoV) was “no binding (tested: one concentration, not printed)” and the IC50 [5] was 3.82 µg/mL.
